{"source": "PubChem BioAssay AID1224833 (University of Georgia, 2016)", "aim": "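Human genes whose knock-down alters rotavirus replication in monkey cells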 (primary screen)", "system": "monkey MA104 kidney cells", "knock-down reagent": "siRNA pool against human genes, 50 nM", "timing": "48 h knock-down before infection; read 24 h after infection", "challenge": "infection with rotavirus strain RV3 two days after transfection; infectious dose for this stage not given", "measurement": "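Rotavirus antigen per well by fluorescent immunoassay, normalised to non-targeting control wells on each plate and given as a standard z-score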", "scale": "z-score vs non-targeting control: higher = more rotavirus replication than with non-targeting control", "active means": "In these data the active calls have z-score vs non-targeting control at about -1 or lower, or at about 1 or higher", "meaning of the calls": "active = z-score beyond 1 either way; inactive = z-score within 1 of zero", "note": "The whole screen tested about 12,000 reagents; shown is a random part of them. About 5,600 of all reagents (46%) count as active. 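Active calls cover z-scores past 1 in both directions, so they include lowered as well as raised rotavirus replication.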"}
{"gene symbol": "GIPC3", "z-score vs non-targeting control": 0.0496, "outcome": "inactive"}
{"gene symbol": "GOSR2", "z-score vs non-targeting control": -0.763, "outcome": "inactive"}
{"gene symbol": "ZC3H18", "z-score vs non-targeting control": -1.16, "outcome": "active"}
{"gene symbol": "HACD4", "z-score vs non-targeting control": -1.12, "outcome": "active"}
{"gene symbol": "ANKRD54", "z-score vs non-targeting control": 1.3, "outcome": "active"}
{"gene symbol": "TTN", "z-score vs non-targeting control": -1.32, "outcome": "active"}
{"gene symbol": "NDUFAF7", "z-score vs non-targeting control": -0.168, "outcome": "inactive"}
{"gene symbol": "IL24", "z-score vs non-targeting control": -0.327, "outcome": "inactive"}
{"gene symbol": "CD207", "z-score vs non-targeting control": 0.385, "outcome": "inactive"}
{"gene symbol": "PGBD3", "z-score vs non-targeting control": -0.807, "outcome": "inactive"}
{"gene symbol": "CASP1", "z-score vs non-targeting control": 1.09, "outcome": "active"}
{"gene symbol": "ELAPOR1", "z-score vs non-targeting control": -1.56, "outcome": "active"}
{"gene symbol": "DCAF6", "z-score vs non-targeting control": -1.18, "outcome": "active"}
{"gene symbol": "KIAA1328", "z-score vs non-targeting control": -0.0329, "outcome": "inactive"}
{"gene symbol": "PYGM", "z-score vs non-targeting control": 0.577, "outcome": "inactive"}
{"gene symbol": "TSPAN7", "z-score vs non-targeting control": -0.501, "outcome": "inactive"}
{"gene symbol": "RFC1", "z-score vs non-targeting control": -0.936, "outcome": "inactive"}
{"gene symbol": "CYSRT1", "z-score vs non-targeting control": 0.821, "outcome": "inactive"}
{"gene symbol": "DIPK1B", "z-score vs non-targeting control": -0.67, "outcome": "inactive"}
{"gene symbol": "EIF6", "z-score vs non-targeting control": 0.82, "outcome": "inactive"}
{"gene symbol": "ABCA3", "z-score vs non-targeting control": -2.79, "outcome": "active"}
{"gene symbol": "KRTAP20-1", "z-score vs non-targeting control": -0.307, "outcome": "inactive"}
{"gene symbol": "ATP13A4", "z-score vs non-targeting control": 0.672, "outcome": "inactive"}

The list goes on; the last 3 above are carried over.
{"gene symbol": "ABCA3", "z-score vs non-targeting control": -2.79, "outcome": "active"}
{"gene symbol": "KRTAP20-1", "z-score vs non-targeting control": -0.307, "outcome": "inactive"}
{"gene symbol": "ATP13A4", "z-score vs non-targeting control": 0.672, "outcome": "inactive"}
{"gene symbol": "TNPO2", "z-score vs non-targeting control": -1.27, "outcome": "active"}
{"gene symbol": "CBR3", "z-score vs non-targeting control": -1.28, "outcome": "active"}
{"gene symbol": "CPE", "z-score vs non-targeting control": 0.821, "outcome": "inactive"}
{"gene symbol": "ZPBP2", "z-score vs non-targeting control": -1.05, "outcome": "active"}
{"gene symbol": "HS3ST1", "z-score vs non-targeting control": -1.24, "outcome": "active"}
{"gene symbol": "ZC3H15", "z-score vs non-targeting control": 0.611, "outcome": "inactive"}
{"gene symbol": "NTNG1", "z-score vs non-targeting control": -2.7, "outcome": "active"}
{"gene symbol": "OR4K5", "z-score vs non-targeting control": -0.587, "outcome": "inactive"}
{"gene symbol": "NETO2", "z-score vs non-targeting control": -1.26, "outcome": "active"}
{"gene symbol": "CLEC4D", "z-score vs non-targeting control": -0.705, "outcome": "inactive"}
{"gene symbol": "RGN", "z-score vs non-targeting control": -1.94, "outcome": "active"}
{"gene symbol": "GJD2", "z-score vs non-targeting control": 0.492, "outcome": "inactive"}
{"gene symbol": "CCDC86", "z-score vs non-targeting control": 0.59, "outcome": "inactive"}
{"gene symbol": "H2AX", "z-score vs non-targeting control": 0.533, "outcome": "inactive"}
{"gene symbol": "CYP4F8", "z-score vs non-targeting control": 0.663, "outcome": "inactive"}
{"gene symbol": "PELI3", "z-score vs non-targeting control": 0.82, "outcome": "inactive"}
{"gene symbol": "ATG10", "z-score vs non-targeting control": -2.04, "outcome": "active"}
{"gene symbol": "NHERF1", "z-score vs non-targeting control": -1.32, "outcome": "active"}
{"gene symbol": "SOD2", "z-score vs non-targeting control": 0.898, "outcome": "inactive"}
{"gene symbol": "TBX5", "z-score vs non-targeting control": 0.178, "outcome": "inactive"}
{"gene symbol": "SARNP", "z-score vs non-targeting control": 0.392, "outcome": "inactive"}
{"gene symbol": "LRRC39", "z-score vs non-targeting control": 0.198, "outcome": "inactive"}
{"gene symbol": "SLC1A5", "z-score vs non-targeting control": -0.72, "outcome": "inactive"}
{"gene symbol": "GDI2", "z-score vs non-targeting control": -3.17, "outcome": "active"}
{"gene symbol": "ZNF333", "z-score vs non-targeting control": 0.753, "outcome": "inactive"}
{"gene symbol": "OPN1SW", "z-score vs non-targeting control": -1.23, "outcome": "active"}
{"gene symbol": "ZBTB33", "z-score vs non-targeting control": -0.0199, "outcome": "inactive"}
{"gene symbol": "CENPW", "z-score vs non-targeting control": -0.0411, "outcome": "inactive"}
{"gene symbol": "SPIB", "z-score vs non-targeting control": -2.28, "outcome": "active"}
{"gene symbol": "BPIFA1", "z-score vs non-targeting control": 0.242, "outcome": "inactive"}
{"gene symbol": "DIMT1", "z-score vs non-targeting control": -0.746, "outcome": "inactive"}
{"gene symbol": "RPAP1", "z-score vs non-targeting control": -1.56, "outcome": "active"}
{"gene symbol": "SAGE1", "z-score vs non-targeting control": -0.827, "outcome": "inactive"}
{"gene symbol": "MAU2", "z-score vs non-targeting control": 1.07, "outcome": "active"}
{"gene symbol": "TMEM54", "z-score vs non-targeting control": -0.342, "outcome": "inactive"}
{"gene symbol": "EXOC4", "z-score vs non-targeting control": -0.716, "outcome": "inactive"}
{"gene symbol": "ZNF536", "z-score vs non-targeting control": -0.777, "outcome": "inactive"}
